Measured values from several laboratories, pooled; numbers as filed in NIAID ChemDB.

Common to all: growth or infection tests; organism: Varicella zoster virus; endpoint: EC50

ECn is the concentration giving n% inhibition of infection, replication or growth.

smiles	cell line	strain or isolate	read by	result
Nc1ncnc2c1ncn2CCOCP(=O)(O)O	-	OKA	cytopathic effect	38 µM
COC(=O)[C@H](C)NP(=O)(OCC1C/C1=C/n1cnc2c(N)ncnc21)Oc1ccccc1	HFF	-	plaque count	7.6 µM
Cc1cn([C@@H]2O[C@H](CO)[C@@H](O)[C@@H]2F)c(=O)[nH]c1=O	HEL	-	plaque count	0.108 µM
COC(=O)[C@H](C)NP(=O)(OC[C@H]1C/C1=C/n1cnc2c(=O)[nH]c(N)nc21)Oc1ccccc1	HFF	-	plaque count	8.1 µM
CCc1cn([C@H]2C[C@H](O)[C@@H](CO)O2)c(=O)[nH]c1=O	HEL	-	plaque count	>625 µM
Cc1cccc2c1OP(=O)(OC[C@H]1O[C@@H](n3cc(/C=C/Br)c(=O)[nH]c3=O)C[C@@H]1OC(=O)CN)OC2	HELF	OKA	plaque count	0.029 µg/mL
O=c1[nH]c(=O)n([C@H]2C[C@H](O)[C@@H](CO)O2)cc1/C=C/Br	HEL	07/1 (TK-)	plaque count	10 µg/mL
Nc1ncnc2c1ncn2C[C@@H](CO)OCP(=O)(O)O	HEL	PCV-resistant/A	plaque count	0.0035 µg/mL
Cc1cccc2c1OP(=O)(OC[C@H]1O[C@@H](n3cc(/C=C/Br)c(=O)[nH]c3=O)C[C@@H]1O)OC2	HELF	OKA	plaque count	0.037 µg/mL
Nc1nc(F)nc2c1ncn2/C=C1/CC1CO	HFF	-	cytopathic effect	>4 µM
O=c1[nH]c(=O)n([C@@H]2O[C@H](CO)[C@@H](O)[C@@H]2O)cc1/C=C/Br	HEL	-	plaque count	0.0023 µM
O=C(O)CP(=O)(O)O	HEL	PCV-resistant/A	plaque count	33.1 µg/mL
CC#Cc1cn([C@H]2C[C@H](O)[C@@H](CO)O2)c(=O)[nH]c1=O	HEL	-	plaque count	3.2 µM
Nc1nc2c(ncn2COC(CO)CO)c(=O)[nH]1	HEL	BVaraU-resistant	plaque count	1.7 µg/mL
Cc1cccc2c1OP(=O)(OC[C@H]1O[C@@H](n3cc(/C=C/Br)c(=O)[nH]c3=O)C[C@@H]1OC(=O)[C@@H](N)Cc1ccccc1)OC2	HELF	OKA	plaque count	0.031 µg/mL
Nc1ncnc2c1ncn2CCOCP(=O)(O)O	HEL	Oka penciclovir-resistant/A	cytopathic effect	131.8 µM
O=C(O)P(=O)(O)O	HEL	BVaraU-resistant	plaque count	12.6 µg/mL
Nc1nc2c(ncn2[C@H]2C=C[C@@H](CO)CC2)c(=O)[nH]1	HEL	07/1 (TK-)	plaque count	5.8 µg/mL
O=c1[nH]c(=O)n([C@@H]2O[C@H](CO)[C@@H](O)[C@@H]2F)cc1/C=C/Br	HEL	-	plaque count	0.023 µM
Nc1nc(N)c2ncn(C[C@H]3CC[C@@H](CO)C3)c2n1	HEL	YS/R (TK-)	plaque count	>50 µg/mL
CCCCCCCCCC(=O)O[C@H]1C[C@H](n2cc(/C=C/Br)c(=O)[nH]c2=O)O[C@@H]1COP1(=O)OCc2cccc(C)c2O1	HELF	OKA	plaque count	0.046 µg/mL
Nc1nc(N)c2nnn(C[C@H]3CC[C@@H](CO)C3)c2n1	HEL	07/1 (TK-)	plaque count	>50 µg/mL
Nc1nc2c(ncn2[C@@H]2C=C[C@H](CO)CC2)c(=O)[nH]1	-	-	plaque count	1–10 µM
Cc1cccc2c1OP(=O)(OC[C@H]1O[C@@H](n3cc(/C=C/Br)c(=O)[nH]c3=O)C[C@@H]1OC(=O)[C@H]1CCCN1)OC2	HELF	OKA	plaque count	0.009 µg/mL
Nc1nc(Cl)nc2c1ncn2/C=C1\CC1CO	HFF	-	cytopathic effect	179 µM
O=c1[nH]c(=O)n([C@@H]2O[C@H](CO)[C@@H](O)[C@H]2O)cc1/C=C/Br	HEL	-	plaque count	42 µM
C[C@H]1C[C@@H](n2cnc3c(N)ncnc32)[C@H](O)[C@@H]1O	HEL	OKA	cytopathic effect	8 µg/mL
Cc1cccc2c1OP(=O)(OC[C@H]1O[C@@H](n3cc(/C=C/Br)c(=O)[nH]c3=O)C[C@@H]1OC(=O)[C@H](N)Cc1ccccc1)OC2	HELF	OKA	plaque count	0.065 µg/mL
Nc1ccn(C[C@H]2COP(=O)(O)CO2)c(=O)n1	HEL	YS/R (TK-)	plaque count	0.28 µM
C[C@H](COc1cc(N)nc(N)n1)OCP(=O)(O)O	-	YS	cytopathic effect	18 µM
Nc1nc(Cl)c2ncn(C[C@H]3CC[C@@H](CO)C3)c2n1	HEL	07/1 (TK-)	plaque count	>20 µg/mL
CC[C@H](C)[C@H](N)C(=O)O[C@H]1C[C@H](n2cc(/C=C/Br)c(=O)[nH]c2=O)O[C@@H]1COP1(=O)OCc2cccc(C)c2O1	HELF	OKA	plaque count	0.025 µg/mL
Nc1nc(NC2CC2)c2ncn(C=C3CC3CO)c2n1	HFF	-	plaque count	13.2 µM
C[C@@H](N)C(=O)O[C@H]1C[C@H](n2cc(/C=C/Br)c(=O)[nH]c2=O)O[C@@H]1COP1(=O)OCc2ccccc2O1	HELF	OKA	plaque count	0.031 µg/mL
C=Cc1cn([C@@H]2O[C@H](CO)[C@@H](O)[C@@H]2F)c(=O)[nH]c1=O	HEL	-	plaque count	0.31 µM
Nc1ncc2c(ncn2COC(CO)CO)n1	HEL	YS (TK+)	plaque count	0.19 µM
Nc1[nH]c(=O)nc2c1ncn2/C=C1/C[C@@H]1CO	HFF	-	cytopathic effect	>85.8 µM
Nc1nc(Cl)c2nnn(C[C@H]3CC[C@@H](CO)C3)c2n1	HEL	YS	plaque count	>200 µg/mL
Nc1ncnc2c1ncn2C[C@@H](CO)OCP(=O)(O)O	-	OKA	cytopathic effect	0.07 µM
Nc1ncnc2c1ncn2[C@@H]1O[C@H](CO)[C@@H](O)[C@@H]1O	HEL	07/1 (TK-)	plaque count	11.2 µM
CC(=O)O[C@H]1C[C@H](n2cc(/C=C/Br)c(=O)[nH]c2=O)O[C@@H]1COP1(=O)OCc2ccccc2O1	HELF	OKA	plaque count	0.006 µg/mL

For reference, 6 entries again:

smiles | cell line | strain or isolate | read by | result
C=Cc1cn([C@@H]2O[C@H](CO)[C@@H](O)[C@@H]2F)c(=O)[nH]c1=O | HEL | - | plaque count | 0.31 µM
Nc1nc(N)c2nnn(C[C@H]3CC[C@@H](CO)C3)c2n1 | HEL | 07/1 (TK-) | plaque count | >50 µg/mL
CCc1cn([C@H]2C[C@H](O)[C@@H](CO)O2)c(=O)[nH]c1=O | HEL | - | plaque count | >625 µM
Nc1nc(Cl)c2ncn(C[C@H]3CC[C@@H](CO)C3)c2n1 | HEL | 07/1 (TK-) | plaque count | >20 µg/mL
Nc1nc(N)c2ncn(C[C@H]3CC[C@@H](CO)C3)c2n1 | HEL | YS/R (TK-) | plaque count | >50 µg/mL
CC#Cc1cn([C@H]2C[C@H](O)[C@@H](CO)O2)c(=O)[nH]c1=O | HEL | - | plaque count | 3.2 µM

a–b is a range or a potency band. Neighbouring rows are from separate reports. An empty or dashed field is not shown.